Source: publication PMC3848071 (Acta Naturae, 2013)

What was measured:
Test in all cases: purified protein
[1] = tested on: C[S+]([O-])CC[C@H](N)C(=O)O
CCSC[C@H](N)C(=O)O = tested on: CCSC[C@H](N)C(=O)O
[2] = tested on: N[C@@H](CSCc1ccccc1)C(=O)O

Substance: MGL from C. tetani (Clostridium tetani E88)
- Km [1]: 7070 µM
- kcat/Km [1]: 382 M⁻¹ s⁻¹
- Km (CCSC[C@H](N)C(=O)O): 720 µM
- kcat/Km (CCSC[C@H](N)C(=O)O): 9830 M⁻¹ s⁻¹
- Km [2]: 766 µM
- kcat/Km [2]: 11100 M⁻¹ s⁻¹
